Pooled drug test results. Numbers come from NIAID ChemDB, via PubChem.

All rows: enzyme or target tests; organism: Hepatitis C virus; target: NS3 protease; read-out: IC50

Conditions beyond the fields shown may differ between rows. ICn: concentration for n% inhibition.

compound	result
C=CCC(NC(=O)[C@H](CC(C)C)NC(=O)[C@@H](NC(=O)[C@H](Cc1ccccc1C)NC(=O)[C@H](CCC(=O)O)NC(=O)[C@H](CC(=O)O)NC(=O)CCC(=O)O)C(C)(C)C)B(O)O	0.034 µM
CC[C@H](NC(=O)[C@@H](NC(=O)[C@@H](NC(=O)[C@H](CC(=O)O)NC(=O)CCC(=O)O)C(C)C)C(C)C)C(=O)N[C@@H](CS)C(=O)O	4.6 µM
O=C(Nc1cccc(Cl)c1Cl)c1c(O)cc(O)c([N+](=O)[O-])c1O	10.1 µg/mL
CC(C)C[C@H](NC(=O)C1(C2CCCCC2)Cc2ccccc2N1)C(=O)N[C@@H](CC(F)F)C(=O)C(=O)O	>100 µM
CCCC(=O)c1cc2c(c(O)c1C)C(=O)C(=O)c1c(O)cccc1-2	7.7 µM
CC(C)C[C@H](NC(=O)C1(CC2CCC2)Cc2ccccc2N1)C(=O)N[C@@H](CC(F)F)C(=O)C(=O)O	>100 µM
CSCC[C@H](NC(=O)[C@H](CCC(=O)O)NC(=O)[C@@H](N)CC(=O)O)C(=O)N[C@@H](CCC(=O)O)C(=O)N[C@@H](CCC(=O)O)C(=O)NCC(=O)O	62 µM
CC(=O)OCCC/C(=C1/SC(=S)N(CC(=O)O)C1=O)c1ccc(Br)cc1	14.5 µM
CC(=O)OCCC/C(=C1/SC(=S)N(CC(=O)O)C1=O)c1ccc(Br)cc1	2.3 µg/mL
CC[C@H](C)[C@H](NC(=O)[C@H](CCC(=O)O)NC(=O)[C@@H](N)CC(=O)O)C(=O)N[C@@H](CCC(=O)O)C(=O)N[C@@H](CC1CCCCC1)C(=O)N[C@@H](CS)C(=O)O	0.12 µM
C/C(=C1/SC(=S)N(CC(=O)O)C1=O)c1ccc2c(ccc3ccccc32)c1	17 µM
CSCC[C@H](NC(=O)[C@@H](N)CCC(=O)O)C(=O)N[C@@H](CCC(=O)O)C(=O)N[C@@H](CCC(=O)O)C(=O)N[C@@H](CS)C(=O)O	21 µM
CCCCCCCCCCCCCCCCC/C(=C1\SC(=S)N(CC(=O)O)C1=O)c1ccccc1	8.35 µM
CSCC[C@H](NC(=O)[C@H](CCC(=O)O)NC(=O)CCC(=O)O)C(=O)N[C@@H](CCC(=O)O)C(=O)N[C@@H](CCC(=O)O)C(=O)N[C@@H](CS)C(=O)O	1.3 µM
CCCC(=O)c1cc2c(c(O)c1C)C(=O)C(=O)c1c(O)cccc1-2	2.5 µg/mL

For reference, 2 entries again:

compound | result
CSCC[C@H](NC(=O)[C@H](CCC(=O)O)NC(=O)CCC(=O)O)C(=O)N[C@@H](CCC(=O)O)C(=O)N[C@@H](CCC(=O)O)C(=O)N[C@@H](CS)C(=O)O | 1.3 µM
CC(=O)OCCC/C(=C1/SC(=S)N(CC(=O)O)C1=O)c1ccc(Br)cc1 | 14.5 µM